# From PMC11578449 (2024)
# Molecular target: Malayan pangolin (Manis javanica) DPP4 (MjDPP4) ectodomain (Manis javanica (Malayan pangolin))
# Assay: SPR
substance,measurement,value
MjHKU4r-CoV-1 spike protein receptor binding domain (RBD) (domain or fragment),Kd,170 nM
